Data published in US7482149B2 (priority 2003, dated 2009).

Test system: SARS-CoV
Format: cell-based

For “Interferon α2a: Interferon α2a (Roferon), Roche, clinically approved interferon”, the “Inhibition of Cytopathic Effect” value was “No” and the “inhibition of CPE” value was “slight, incomplete inhibition”.

B1: Interferon β1a: Interferon β1a (Rebif), Serono (protein, UniProt P01574 22-187, looked up)
Interferon beta: MSYNLLGFLQRSSNFQCQKLLWQLNGRLEYCLKDRMNFDIPEEIKQLQQFQKEDAALTIYEMLQNIFAIFRQDSSSTGWNETIVENLLANVYHQINHLKTVLEEKLEKEDFTRGKLMSSLHLKRYYGRILHYLKAKEYSHCAWTIVRVEILRNFYFINRLTGYLRN
For B1, the “Inhibition of Cytopathic Effect” value was “No” and the “inhibition of CPE” value was “slight inhibition”.
